Results of unrelated studies side by side (data: NIAID ChemDB).

All rows: whole-cell or culture tests

An empty or dashed field is not shown. a–b is a range or a potency band. A number after MIC or MFC names an inhibition level or a share of isolates. Lines come from different laboratories, so protocols vary.

structure	organism	strain or isolate	read by	conditions	read-out	result
C=CCNC(=O)c1c(C)nc2ccccn12	Mycobacterium ulcerans		fluorescence		MIC50	>10 µg/mL
S=c1oc2ccc(Br)cc2c(=S)n1-c1cccc(Cl)c1	Mycobacterium kansasii	6509/96		21 d	MIC	4 µM
CO[C@H]1/C=C/O[C@@]2(C)Oc3c(C)c(O)c4c(O)c(c(/C=N/N5CCN(C6CCCC6)CC5)c(O)c4c3C2=O)NC(=O)/C(C)=C\C=C\[C@H](C)[C@H](O)[C@@H](C)[C@@H](O)[C@@H](C)[C@H](OC(C)=O)[C@@H]1C	Mycobacterium avium intracellulare	LPR			MIC	0.5 µg/mL
Fc1ccc2c(Nc3ccc(Oc4ccccc4)cc3)ncnc2c1	Mycobacterium bovis BCG		luminescence		MIC50	>20 µM
Fc1ccc2oc(=S)n(-c3ccc(Cl)c(Cl)c3)c(=S)c2c1	Mycobacterium kansasii	6509/96		14 d	MIC	1 µM
CCCCCCCC(CCCCCCC)NC(=O)NC(CCC(=O)O)(CCC(=O)O)CCC(=O)O	Mycobacterium abscessus	AAy-P-1			MIC	144 µg/mL
Cc1ccc2nc(C)c(C(=O)NCc3ccc(-c4ccccc4)cc3)n2c1	Mycobacterium ulcerans		fluorescence		MIC50	0.001–0.01 µg/mL
C[C@@H]1CN(c2c(F)c(N)c3c(=O)c(C(=O)O)cn(C4CC4)c3c2F)C[C@H](C)N1	Mycobacterium avium complex	N-951 (HIV+)			MIC	0.5 µg/mL
CC1(C)N=C(N)N=C(N)N1OCCCOc1cc(Cl)c(Cl)cc1Cl	Mycobacterium avium complex	3010			MIC	2 µg/mL
O=C(NCc1ccc(-n2ccnc2)cc1)c1c(Cl)nc2ccccn12	Mycobacterium ulcerans		fluorescence		MIC50	>10 µg/mL
FC(F)(F)Oc1ccc(CCNc2ncnc3cc(Cl)ccc23)cc1	Mycobacterium bovis BCG		luminescence		MIC50	>20 µM
CN[C@@H]1[C@H](O[C@H]2[C@H](O[C@H]3[C@H](O)[C@@H](O)[C@H](N=C(N)N)[C@@H](O)[C@@H]3N=C(N)N)O[C@@H](C)[C@]2(O)C=O)O[C@@H](CO)[C@H](O)[C@H]1O	Mycobacterium avium complex	N-238 (HIV-)			MIC	16 µg/mL
CO[C@H]1/C=C/O[C@@]2(C)Oc3c(C)c(O)c4c(=O)c(c5oc6cc(N7CCN(CC(C)C)CC7)cc(=O)c6nc5c4c3=C2O)NC(=O)/C(C)=C\C=C\[C@H](C)[C@H](O)[C@@H](C)[C@@H](O)[C@@H](C)[C@H](OC(C)=O)[C@@H]1C	Mycobacterium ulcerans	Isolate 8756			MIC	0.025 µg/mL
Cc1ccc2oc(=O)n(-c3cccc(F)c3)c(=S)c2c1	Mycobacterium kansasii	My 235/80		14 d	MIC	16 µM
CO[C@@]1(NC(=O)Cc2cccs2)C(=O)N2C(C(=O)O)=C(COC(N)=O)CS[C@@H]21	Mycobacterium fortuitum	914-8			MIC	6.25 µg/mL
Nc1ccc(S(=O)(=O)c2ccc(N)cc2)cc1	Mycobacterium avium complex	DW19			MIC	32 µg/mL
FC(F)(F)c1ccc(N2CCCN(c3ccc(Nc4ncnc5ccccc45)cc3)CC2)cc1	Mycobacterium bovis BCG		luminescence		MIC50	>50 µM
CCCCCCCCCCCCCCCCCCCCCCC(=O)NC(C)(CCC(=O)O)CCC(=O)O	Mycobacterium abscessus	AAy-P-1			MIC	72 µg/mL
CO[C@@]1(NC(=O)Cc2ccccc2)C(=O)N2C(C(=O)[O-])=C(CSc3nnc(C)s3)CSC21	Mycobacterium fortuitum	1059			MIC	>100 µg/mL
CCCCCCCCCCCCCCCCC(=O)NC(CCC(=O)O)(CCC(=O)O)CCC(=O)O	Mycobacterium marinum	ATCC 927			MIC	288 µg/mL
CC[C@H]1OC(=O)[C@H](C)[C@@H](O[C@H]2C[C@@](C)(OC)[C@@H](O)[C@H](C)O2)[C@H](C)[C@@H](O[C@@H]2O[C@H](C)C[C@H](N(C)C)[C@H]2O)[C@](C)(OC)C[C@@H](C)C(=O)[C@H](C)[C@@H](O)[C@]1(C)O	Mycobacterium avium complex	N-238 (HIV-)			MIC	4 µg/mL
O=c1oc2ccc(Br)cc2c(=S)n1-c1cccc(Cl)c1	Mycobacterium kansasii	My 235/80		21 d	MIC	4 µM
CCCCCCCCCCCCCCNC(=O)NC(CCC(=O)O)(CCC(=O)O)CCC(=O)O	Mycobacterium abscessus	AAy-P-1			MIC	144 µg/mL
Fc1ccc2c(NCCc3ccccc3)ncnc2c1	Mycobacterium bovis BCG		luminescence		MIC50	>50 µM
CCc1nc2ccc(Cl)cn2c1C(=O)NCc1ccc(N2CCOCC2)cc1	Mycobacterium ulcerans		fluorescence		MIC50	0.1–1 µg/mL
O=c1oc2ccc(F)cc2c(=S)n1-c1ccc(Br)cc1	Mycobacterium kansasii	6509/96		14 d	MIC	1 µM
CO[C@@]1(NC(=O)Cn2cnnn2)C(=O)N2C(C(=O)O)=C(CSc3nnc(C)s3)CSC21	Mycobacterium fortuitum	AO5			MIC	50 µg/mL
CCCCCCCCCCCCCCCCCC(=O)NC(CCC(=O)O)(CCC(=O)O)CCC(=O)O	Mycobacterium marinum	ATCC 927			MIC	288 µg/mL
CO[C@@]1(NC(=O)C(C(=O)O)c2ccc(O)cc2)C(=O)N2C(C(=O)O)=C(CSc3nnnn3C)CO[C@@H]21	Mycobacterium fortuitum	914-8			MIC	12.5 µg/mL
CCCCCCCCCCCCCCC(=O)NC(CCC(=O)O)(CCC(=O)O)CCC(=O)O	Mycobacterium marinum	ATCC 927			MIC	216 µg/mL
CO[C@H]1/C=C/O[C@@]2(C)Oc3c(C)c(O)c4c(=O)c(c5oc6cc(N7CCN(CC(C)C)CC7)cc(=O)c6nc5c4c3=C2O)NC(=O)/C(C)=C\C=C\[C@H](C)[C@H](O)[C@@H](C)[C@@H](O)[C@@H](C)[C@H](OC(C)=O)[C@@H]1C	Mycobacterium avium complex	N-238 (HIV-)			MIC	0.0313 µg/mL
CCCCCCCCCCCCC(CCCCCCCCCCCC)OC(=O)NC(CCC(=O)O)(CCC(=O)O)CCC(=O)O	Mycobacterium chelonae	EO-P-1			MIC	71 µg/mL
CO[C@@]1(NC(=O)CCCC(N)C(=O)O)C(=O)N2C(C(=O)O)=C(COC(N)=O)CSC21	Mycobacterium fortuitum	1263			MIC	>100 µg/mL

Again, the opening 3 rows:

structure | organism | strain or isolate | read by | conditions | read-out | result
C=CCNC(=O)c1c(C)nc2ccccn12 | Mycobacterium ulcerans |  | fluorescence |  | MIC50 | >10 µg/mL
S=c1oc2ccc(Br)cc2c(=S)n1-c1cccc(Cl)c1 | Mycobacterium kansasii | 6509/96 |  | 21 d | MIC | 4 µM
CO[C@H]1/C=C/O[C@@]2(C)Oc3c(C)c(O)c4c(O)c(c(/C=N/N5CCN(C6CCCC6)CC5)c(O)c4c3C2=O)NC(=O)/C(C)=C\C=C\[C@H](C)[C@H](O)[C@@H](C)[C@@H](O)[C@@H](C)[C@H](OC(C)=O)[C@@H]1C | Mycobacterium avium intracellulare | LPR |  |  | MIC | 0.5 µg/mL